Compound potency records, mixed from different reports. Data source: NIAID ChemDB in PubChem.

All rows: tests on isolated targets; species: HIV-1; protein: Reverse transcriptase; endpoint: IC50

Blank or dashed fields: not listed here. ICn is the concentration giving n% inhibition. Conditions beyond the fields shown may differ between rows.

C/C=C/CSc1cc(NC(=S)c2ccsc2C)ccc1Cl ; result: 7.5 µM
CCc1c(Sc2ccccn2)n(COCc2ccccc2)c(=O)[nH]c1=O ; mutations: RT-Y188H ; result: 8 µM
CC(C)=CCOc1cc(NC(=S)c2ccoc2C)ccc1Cl ; mutations: RT-P236L ; result: 1.1 µM
Cc1cccc(NC(=S)N[C@H](C)c2ccccc2)n1 ; result: 1.7 µM
Cc1c(Sc2ccccc2)n(COCCO)c(=O)[nH]c1=O ; mutations: RT-I135T ; result: ~2 µM
C[C@H](CNC(=S)Nc1ccc(Br)cn1)c1ccccc1 ; result: 1.9 µM
Cc1cc(C)c(-n2nnnc2SCC(=O)Nc2ccc(C(N)=O)cc2Cl)c(C)c1 ; mutations: RT-K103N ; result: 0.006 µM
CCC(NC(=S)Nc1nc2ccc(OC)cc2s1)c1ccccc1 ; result: >100 µM
Cc1cccc(-n2nnnc2SCC(=O)Nc2ccccc2[N+](=O)[O-])c1C ; mutations: RT-K103N ; result: 0.18 µM
CNc1ccc(Cl)cc1S(=O)(=O)c1ccccc1[N+](=O)[O-] ; strain: WT ; result: 11 µM
Cc1c(Cl)cccc1-n1nnnc1SCC(=O)Nc1ccccc1[N+](=O)[O-] ; mutations: RT-K103N ; result: 0.009 µM
Cc1occc1C(=S)Nc1ccc(Cl)c(/C=N/OC(C)(C)C)c1 ; mutations: RT-L74V ; result: 6.1 µM
C[C@@H](CNC(=S)Nc1ccccn1)c1ccccc1 ; result: 8.4 µM
NS(=O)(=O)c1ccc(NC(=O)CSc2nnnn2-c2cccc(Cl)c2Cl)c(Cl)c1 ; mutations: RT-K103N ; result: 0.009 µM

The last 2 rows once more:

| smiles | strain | mutations | result |
|---|---|---|---|
| C[C@@H](CNC(=S)Nc1ccccn1)c1ccccc1 |  |  | 8.4 µM |
| NS(=O)(=O)c1ccc(NC(=O)CSc2nnnn2-c2cccc(Cl)c2Cl)c(Cl)c1 |  | RT-K103N | 0.009 µM |